# Results as given in ChEMBL document CHEMBL1828518, “Arylazolylthioacetanilide. Part 8: Design, synthesis and biological evaluation of novel 2-(2-(2,4-dichlorophenyl)-2H-1,2,4-triazol-3-ylthio)-N-arylacetamides as potent HIV-1 inhibitors” (Eur J Med Chem, 2011).
# Assays:
# [1] = tested on: Human immunodeficiency virus 1; assay: Ratio of EC50 for HIV-1 3B harboring RT L100I mutant infected in human MT4 cells to EC50 for wild type HIV-1 3B infected in human MT4 cells; format: functional
# Summary of the method: (§1)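 Fold resistance is the EC50 against the drug-resistant strain divided by the EC50 against wild-type HIV-1 IIIB. Both values come from the same MT-4 assay: 5-day infection, MTT viability read-out, and serial fivefold compound dilutions in triplicate wells.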
# [2] = tested on: Human immunodeficiency virus 1; assay: Ratio of EC50 for HIV-1 3B harboring RT K103N mutant infected in human MT4 cells to EC50 for wild type HIV-1 3B infected in human MT4 cells; format: functional; summary of the method: as §1
compound,measurement,setting,value
O=C1Nc2ccc(Cl)cc2[C@@](C#CC2CC2)(C(F)(F)F)O1 [EFAVIRENZ],Ratio EC50,[1],14.2
same,Ratio EC50,[2],28.3
